Results of unrelated studies side by side (data: NIAID ChemDB).

Common to all: whole-cell or culture tests; organism: HIV-1; measure: fold resistance

Fold resistance: result on the changed form divided by that on wild type. An empty or dashed field is not shown. Rows are shuffled and stem from different studies.

compound	strain	mutations	cell line	read by	value
CC(C)=CCOc1cc(NC(=S)c2ccoc2C)ccc1Cl	Diphenyl sulfone-resistant (RT-Y181C)	RT-Y181C	CEM + CEM-SS	cytopathic effect / XTT	90
Cc1cc(S(N)(=O)=O)ccc1NC(=O)COc1ccc(Cl)cc1C(=O)c1cc(Cl)cc(C#N)c1	HXB2 (RT-K103N G190A) Recombinant	RT-K103N G190A	HeLa + HELA CD4+	β-galactosidase	~1
CCOCn1c(Sc2cc(C)cc(C)c2)c(CC)c(=O)[nH]c1=O	IIIB	Nevirapine resistant (RT Y181C)	CEM	syncytia	22.5
Cc1cc(OCCCS(N)(=O)=O)ccc1NC(=O)COc1ccc(Cl)cc1C(=O)c1cc(F)cc(C(F)(F)F)c1	HXB2	RT-G190E	HeLa + HELA CD4+	β-galactosidase	~1
CCC(=O)c1ccc(F)c([C@@H]2C[C@@H]2NC(=O)Nc2ccc(C#N)cn2)c1O	LAI	NNRTI-resistant (RT V108I)	TZM-bl	β-galactosidase / luminescence	1.3
CCc1c(Sc2cc(C)cc(C)c2)n(COCc2ccccc2)c(=S)[nH]c1=O	IIIB	RT-Y181C	CEM	syncytia	53.3
Cc1ccc(C2CC2)c(-c2ccc3c(c2)CCCO3)c1[C@H](OC(C)(C)C)C(=O)O	NL4-3	NRTI/NNRTI resistant K103N/Y181C	MT-4	luminescence	1
Cc1cc(S(N)(=O)=O)ccc1NC(=O)COc1ccc(Cl)cc1C(=O)c1cccc(C#N)n1	HXB2 (RT-K103N G190A) Recombinant	RT-K103N G190A	HeLa + HELA CD4+	β-galactosidase	~1
CCc1c(Sc2ccccc2)n(COCc2ccccc2)c(=S)[nH]c1=O	IIIB	RT-Y188H	CEM	syncytia	≥8330
Cc1cc(S(N)(=O)=O)ccc1NC(=O)COc1ccc(Cl)cc1C(=O)c1cc(F)cc(C(F)(F)F)c1	HXB2	RT-K103N	HeLa + HELA CD4+	β-galactosidase	~1
CCOCn1c(Cc2cc(C)cc(C)c2)c(CC)c(=O)[nH]c1=O	IIIB	RT-Y188H	CEM	syncytia	1000
O=C1Nc2ccc(Cl)cc2[C@@](C#CC2CC2)(C(F)(F)F)N1		RT-L100I			3.16
C[C@H]1CO[C@@H]2Cn3cc(C(=O)NCc4ccc(F)cc4F)c(=O)c(O)c3C(=O)N12	NL4-3	G140S/Q148H	CBMC	RT activity	16.8
C[C@@H]1CCO[C@H]2Cn3cc(C(=O)NCc4ccc(F)cc4F)c(=O)c(O)c3C(=O)N12	NL4-3	PI-resistant ARP-11803 (L33F/E34T/K43T/G48V/I54S/L63P/A71V/V82A)	MT-4	luminescence	1
Cc1cc(C#N)cc(C(=O)c2cc(Cl)ccc2OCC(=O)Nc2cnc(S(N)(=O)=O)cc2C)c1	HXB2 (RT-K103N Y181C) Recombinant	RT-K103N Y181C	HeLa + HELA CD4+	β-galactosidase	~1
CC(C)c1c(Sc2ccccc2)n(COCc2ccccc2)c(=S)[nH]c1=O	IIIB (TIBO 82150) (RT-L100I)	RT-L100I	CEM	syncytia	2.5
O=C1Nc2ccc(F)c(F)c2[C@@](C#CC2CC2)(C(F)(F)F)N1		RT-L100I			7.78
CCc1c(Sc2ccccc2)n(COCc2ccccc2)c(=O)[nH]c1=O	IIIB	RT-E138K	CEM	syncytia	30
Cc1cc(S(N)(=O)=O)ccc1NC(=O)COc1ccc(Cl)cc1C(=O)c1cccc(C#N)c1	HXB2	RT-Y188C	HeLa + HELA CD4+	β-galactosidase	~1
CC(C)=CCOc1cc(NC(=S)c2ccsc2C)ccc1Cl	NL4-3 (RT V108I)	RT-V108I	CEM + CEM-SS	cytopathic effect / XTT	1
O=C(COc1ccc(Cl)cc1C(=O)c1ccccc1)Nc1ccc2cn[nH]c2c1	HXB2	RT-Y181C	HeLa + HELA CD4+	β-galactosidase	~10
C/C=C/CSc1cc(NC(=S)c2ccsc2C)ccc1Cl	NL4-3	RT-A98G	CEM + CEM-SS	p24	9

The first 3 rows once more:

compound,strain,mutations,cell line,read by,value
CC(C)=CCOc1cc(NC(=S)c2ccoc2C)ccc1Cl,Diphenyl sulfone-resistant (RT-Y181C),RT-Y181C,CEM + CEM-SS,cytopathic effect / XTT,90
Cc1cc(S(N)(=O)=O)ccc1NC(=O)COc1ccc(Cl)cc1C(=O)c1cc(Cl)cc(C#N)c1,HXB2 (RT-K103N G190A) Recombinant,RT-K103N G190A,HeLa + HELA CD4+,β-galactosidase,~1
CCOCn1c(Sc2cc(C)cc(C)c2)c(CC)c(=O)[nH]c1=O,IIIB,Nevirapine resistant (RT Y181C),CEM,syncytia,22.5